Test results: patent US8470805B2, “Processes for preparing piperazinium salts of KMUP and use thereof” (Kaohsiung Medical University, priority 2009, dated 2013)

System: STZ-induced diabetic rats
Test: Serum glucose and body weight in streptozosin (STZ)-induced diabetic rats
Format: in vivo
Details: 5 mg/kg orally, after 21 days
Procedure: 2. The effect of KMUP-1 on decreasing the amount of the serum glucose in streptozosin (STZ)-induced diabetic rats
60 mg/kg of streptozosin is injected intravenously for inducing the STZ-induced rats, and the KMUP-1 HCl salt (0.5, 1.5, 2.5 and 5 mg/kg) and KMUP-1-Simvastatinic acid (5 mg/kg) are administered orally. After 21 days, the amount of the serum glucose (mg/dl), the amount of the serum insulin (mg/dl), the body weight (g) and the change of the body weight are measured.

In the case of `CCC(C)(C)C(=O)O[C@H]1C[C@@H](C)C=C2C=C[C@H](C)[C@H](CC[C@@H](O)C[C@@H](O)CC(=O)O)[C@H]21.Cn1c(=O)c2c(ncn2CCN2CCN(c3ccccc3Cl)CC2)n(C)c1=O` [KMUP-1-Simvastatinic acid, KMUP-1-Simvastatinic acid complex], the Body weight is reported as 311.2 ± 12.6 g.
